Biological target: LRP1 cluster II, biotinylated, not stated, Q07954 852-1182
Test: BLI

Ricin B subunit (RTB), purified biotin (biotinylated)
wavelength shift: 0.5 nm
